Measurements taken from article PMC10033279, “Mutation of a distal gating residue modulates NADH binding in NADH:Quinone oxidoreductase from Pseudomonas aeruginosa PAO1” (The Journal of Biological Chemistry, 2023).

test system: NC(=O)C1=CN([C@@H]2O[C@H](COP(=O)(O)OP(=O)(O)OC[C@H]3O[C@@H](n4cnc5c(N)ncnc54)[C@H](O)[C@@H]3O)[C@@H](O)[C@H]2O)C=CC1; assay: purified protein; details: varied 1,4-benzoquinone, 20 mM KPi, 200 mM NaCl, pH 7.0, 25 °C

**Q.** What does the source list for “NADH:quinone oxidoreductase (NQO), PA1024 (Pseudomonas aeruginosa PAO1; Q80G)”?
**A.** Km: 360 ± 15 µM; kcat: 27 ± 1 s⁻¹

**Q.** With “NADH:quinone oxidoreductase (NQO), PA1024 (Pseudomonas aeruginosa PAO1; Q80E)” as the substance, how does the Km read?
**A.** Its Km is 120 ± 10 µM.

**Q.** What about the kcat of the same substance?
**A.** Its kcat is 20 ± 1 s⁻¹.

**Q.** Which results are given for “NADH:quinone oxidoreductase (NQO), PA1024 (Pseudomonas aeruginosa PAO1; Q80L)”?
**A.** Km: 180 ± 8 µM; kcat: 23 ± 1 s⁻¹
